Results reported in publication PMC10628858, “Investigation of new ferrocenyl-artesunate derivatives as antiparasitics” (Dalton Transactions (Cambridge, England : 2003), 2023).

System: HEK293 cells
Assay: MTT cell viability assay, HEK293
Assay type: cell-based, human
Conditions: selectivity index; for S.I (P. falciparum), HEK293: HEK293 vs P. falciparum NF54; for S.I (T. gondii), HEK293: HEK293 vs T. gondii
Description: To assess the cytotoxicity of the four compounds a MTT cell viability assay using human embryonic kidney (HEK293) and human prostatic (PNT1A) cell lines were performed. […] The long chain compounds C1 and C3 were also shown to be non-cytotoxic towards the HEK293 cell line.
The immortalised human prostatic epithelial cell line, PNT1A (Sigma Aldrich, 95012614) was cultured in RPMI-1640 containing 10% foetal calf serum (Life Technologies, South Africa). The human embryonic kidney cell line HEK293 (ATCC) was cultured in DMEM (Life Technologies, South Africa). Both cell lines were cultured at 37 °C under 5% CO2 with 1% penicillin and streptomycin. Cancer cell cytotoxicity was evaluated using the MTT viability assay according to our previous method.[49] Briefly, cells were seeded at a density of 3 × 10^3 cells per well in 96-well plates and allowed to settle overnight. A 100 mM stock of C1/C2 and a 50 mM stock solution of C3/C4 in DMSO was prepared from which dilutions were made. The compound was then added to the cells in triplicate to obtain the indicated concentrations and 0.1% DMSO. Controls included cells treated with […] DMSO alone. After 48 h, 10 μL of 5 mg mL^−1 MTT (3-(4,5-dimethylthiazol-2-yl)-2,5-diphenyltetrazolium bromide) (Sigma-Aldrich) was added, and incubated with the cells for 4 h, followed by addition of 100 μL 10% SLS, 0.01 M HCL. The plates were read at 595 nm on a Multiscan FC plate reader (Thermo Scientific) and the data was fitted to a variable slope dose–response curve using Graphpad prism v6 to obtain the cytotoxicity IC50. The assay was repeated independently three times where inhibition was observed.

## CC1CCC2C(C)C(OC(=O)CCC(=O)NC[c-]3cccc3)OC3OC4(C)CCC1C32OO4.[Fe+2].c1cc[cH-]c1 (stereo not shown) [Compound C4]
  S.I (P. falciparum), HEK293: 3000
  S.I (T. gondii), HEK293: 60

## CC1CCC2C(C)C(OC(=O)CCC(=O)OC[c-]3cccc3)OC3OC4(C)CCC1C32OO4.[Fe+2].c1cc[cH-]c1 (stereo not shown) [Compound C2]
  S.I (P. falciparum), HEK293: 2800
  S.I (T. gondii), HEK293: 190
